PubChem BioAssay AID1259414, Drosophila RNAi Screening Center, 2018

Purpose: 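Host factors increasing or decreasing Wolbachia levels in cultured fly cells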 (primary screen)
System: Drosophila JW18 cells infected with Wolbachia
Knock-down reagent: long dsRNA against Drosophila genes, 0.25 µg dsRNA per well of a 384-well plate
Duration: 5 days
Conditions: cells persistently infected with Wolbachia before knock-down; no added drug
Measurement: 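Imaged fluorescence in situ signal for Wolbachia 23S rRNA per DAPI-counted host cell, given as a robust z-score within each plate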
Direction: Wolbachia per cell robust z: higher = more Wolbachia per host cell than the plate typical
Active means: 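Hit when robust z is 1.5 or more, or -1.5 or less, in at least two of three replicates; excludes dsRNAs with several or no targets, genes not expressed in JW18 and well A1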
The screen tested about 24,000 reagents; below is an unselected part of those that have a named target and a result. In the full data, about 1,210 (5%) are marked active. 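Inactive calls also include excluded dsRNAs with several or no targets, genes unexpressed in JW18, and well A1, regardless of score.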 The numbers tell different reagents against one gene apart. A plus sign joins genes that one reagent is predicted to hit.

Knock-down of Cpr35B (Cuticular protein 35B) #1 resulted in: Wolbachia per cell robust z, rep 1 = -0.462; Wolbachia per cell robust z, rep 2 = 0.215; Wolbachia per cell robust z, rep 3 = -0.217; inactive.
Against Cpr35B (Cuticular protein 35B) #2, the entry reads Wolbachia per cell robust z, rep 1 = -1.65; Wolbachia per cell robust z, rep 2 = 0.0167; Wolbachia per cell robust z, rep 3 = -5.33; inactive.
Against Cpr35B (Cuticular protein 35B) #3, the values are Wolbachia per cell robust z, rep 1 = 0.224; Wolbachia per cell robust z, rep 2 = 0.88; Wolbachia per cell robust z, rep 3 = 0.226; inactive.
For mthl4 + mthl3, the entry reads Wolbachia per cell robust z, rep 1 = -0.178; Wolbachia per cell robust z, rep 2 = 0.199; Wolbachia per cell robust z, rep 3 = -0.133; inactive.
Knock-down of Acyp (Acylphosphatase) #1 resulted in: Wolbachia per cell robust z, rep 1 = -0.744; Wolbachia per cell robust z, rep 2 = 0.00453; Wolbachia per cell robust z, rep 3 = 0.3; inactive.
For Acyp (Acylphosphatase) #2, the values are Wolbachia per cell robust z, rep 1 = -0.202; Wolbachia per cell robust z, rep 2 = -2.5; Wolbachia per cell robust z, rep 3 = -0.139; inactive.
CG42559 + CG42560 showed Wolbachia per cell robust z, rep 1 = -1.53; Wolbachia per cell robust z, rep 2 = -0.0538; Wolbachia per cell robust z, rep 3 = -0.975; inactive.
Knock-down of Rbp (RIM-binding protein) #1 came out at: Wolbachia per cell robust z, rep 1 = 3.73; Wolbachia per cell robust z, rep 2 = 9.41; Wolbachia per cell robust z, rep 3 = 12.2; inactive.
Silencing of Rbp (RIM-binding protein) #2 gave: Wolbachia per cell robust z, rep 1 = 0.845; Wolbachia per cell robust z, rep 2 = -0.494; Wolbachia per cell robust z, rep 3 = 0.274; inactive.
After knock-down of Syn1 + CG7370, the screen gave Wolbachia per cell robust z, rep 1 = -0.367; Wolbachia per cell robust z, rep 2 = -0.344; Wolbachia per cell robust z, rep 3 = -1.95; inactive.
CG14229 #1 showed Wolbachia per cell robust z, rep 1 = 1.23; Wolbachia per cell robust z, rep 2 = 1.94; Wolbachia per cell robust z, rep 3 = 0.782; inactive.
With knock-down of CG14229 #2 the results were Wolbachia per cell robust z, rep 1 = 0.338; Wolbachia per cell robust z, rep 2 = 0.353; Wolbachia per cell robust z, rep 3 = 0.437; inactive.
Against CG42331 #1, the entry reads Wolbachia per cell robust z, rep 1 = 0.0883; Wolbachia per cell robust z, rep 2 = -1.82; Wolbachia per cell robust z, rep 3 = 0.133; inactive.
For CG42331 #2, the values are Wolbachia per cell robust z, rep 1 = -4.31; Wolbachia per cell robust z, rep 2 = -1.91; Wolbachia per cell robust z, rep 3 = -4.66; inactive.
Against CG42331 #3, the values are Wolbachia per cell robust z, rep 1 = -0.538; Wolbachia per cell robust z, rep 2 = 0.752; Wolbachia per cell robust z, rep 3 = -0.27; inactive.
For Cp15 (Chorion protein 15) #1 the deposit lists Wolbachia per cell robust z, rep 1 = 0.319; Wolbachia per cell robust z, rep 2 = -0.82; Wolbachia per cell robust z, rep 3 = -0.224; inactive.
Against Cp15 (Chorion protein 15) #2 the deposit lists Wolbachia per cell robust z, rep 1 = -0.187; Wolbachia per cell robust z, rep 2 = 0.958; Wolbachia per cell robust z, rep 3 = 0.644; inactive.
Bap55 (Brahma associated protein 55kD) gave Wolbachia per cell robust z, rep 1 = 0.844; Wolbachia per cell robust z, rep 2 = 0.951; Wolbachia per cell robust z, rep 3 = 0.698; inactive.
Knock-down of CG10051 gave: Wolbachia per cell robust z, rep 1 = 0.583; Wolbachia per cell robust z, rep 2 = 0.417; Wolbachia per cell robust z, rep 3 = 0.572; inactive.
After knock-down of CAH8 (Carbonic anhydrase 8), the screen gave Wolbachia per cell robust z, rep 1 = -0.585; Wolbachia per cell robust z, rep 2 = -0.502; Wolbachia per cell robust z, rep 3 = -1.7; inactive.

In a second layout: 5 of the entries above
{"target": "Syn1 + CG7370", "dsRNA no.": 1, "Wolbachia per cell robust z, rep 1": -0.367, "Wolbachia per cell robust z, rep 2": -0.344, "Wolbachia per cell robust z, rep 3": -1.95, "Outcome": "inactive"}
{"target": "CG14229", "dsRNA no.": 1, "Wolbachia per cell robust z, rep 1": 1.23, "Wolbachia per cell robust z, rep 2": 1.94, "Wolbachia per cell robust z, rep 3": 0.782, "Outcome": "inactive"}
{"target": "CG14229", "dsRNA no.": 2, "Wolbachia per cell robust z, rep 1": 0.338, "Wolbachia per cell robust z, rep 2": 0.353, "Wolbachia per cell robust z, rep 3": 0.437, "Outcome": "inactive"}
{"target": "CG42331", "dsRNA no.": 1, "Wolbachia per cell robust z, rep 1": 0.0883, "Wolbachia per cell robust z, rep 2": -1.82, "Wolbachia per cell robust z, rep 3": 0.133, "Outcome": "inactive"}
{"target": "CG42331", "dsRNA no.": 2, "Wolbachia per cell robust z, rep 1": -4.31, "Wolbachia per cell robust z, rep 2": -1.91, "Wolbachia per cell robust z, rep 3": -4.66, "Outcome": "inactive"}

Next entries follow.
Against 14-3-3epsilon #1, the entry reads Wolbachia per cell robust z, rep 1 = -1.23; Wolbachia per cell robust z, rep 2 = -1.17; Wolbachia per cell robust z, rep 3 = 0.5; inactive.
With knock-down of 14-3-3epsilon #2, the screen gave Wolbachia per cell robust z, rep 1 = 0.944; Wolbachia per cell robust z, rep 2 = -2.23; Wolbachia per cell robust z, rep 3 = -0.129; inactive.
vnd (ventral nervous system defective) #1 showed Wolbachia per cell robust z, rep 1 = -4.24; Wolbachia per cell robust z, rep 2 = -0.277; Wolbachia per cell robust z, rep 3 = 0.0609; inactive.
vnd (ventral nervous system defective) #2 gave Wolbachia per cell robust z, rep 1 = -2.4; Wolbachia per cell robust z, rep 2 = -0.0194; Wolbachia per cell robust z, rep 3 = 0.441; inactive.
Against vnd (ventral nervous system defective) #3 the deposit lists Wolbachia per cell robust z, rep 1 = 0.352; Wolbachia per cell robust z, rep 2 = -0.43; Wolbachia per cell robust z, rep 3 = -0.25; inactive.
Against vnd (ventral nervous system defective) #4, the entry reads Wolbachia per cell robust z, rep 1 = 0.887; Wolbachia per cell robust z, rep 2 = -2.77; Wolbachia per cell robust z, rep 3 = 0.345; inactive.
Knock-down of CG42728 resulted in: Wolbachia per cell robust z, rep 1 = -1.6; Wolbachia per cell robust z, rep 2 = 0.856; Wolbachia per cell robust z, rep 3 = -0.669; inactive.
Against Naa80 (N(alpha)-acetyltransferase 80) #1, the entry reads Wolbachia per cell robust z, rep 1 = -0.462; Wolbachia per cell robust z, rep 2 = -0.432; Wolbachia per cell robust z, rep 3 = -0.481; inactive.
After knock-down of Naa80 (N(alpha)-acetyltransferase 80) #2 the results were Wolbachia per cell robust z, rep 1 = 0.185; Wolbachia per cell robust z, rep 2 = 0.393; Wolbachia per cell robust z, rep 3 = 0.59; inactive.
Depletion of CG9702 came out at: Wolbachia per cell robust z, rep 1 = -0.169; Wolbachia per cell robust z, rep 2 = -3.31; Wolbachia per cell robust z, rep 3 = -0.807; inactive.
